Paper PMC3319533
Where a protein sequence is shown, tags need not be part of it. For some assays here: The exact form of at least one protein or probe is not confirmed. For some assays here: At least one verdict rests on a figure or table, not on a statement of the authors.

Assays:
[1] = target: T1, CpxR (CpxR_KP) (Klebsiella pneumoniae NTUH-K2044) (UniProt A0ACD7TV00); experiment: EMSA; details: CpxR 46-466 nM, poly(dI-dC); 10 mM Tris-HCl pH 8.0, 2 mM EDTA, 0.5 mM DTT, 50 mM NaCl, 10% glycerol, 1 ug poly(dI-dC); 5% native PAGE; temperature not stated; recombinant protein; residues 1-232; protein details: N-terminal His6 (pET-28c); label: 32P end label; probe letters rebuilt from the primers and the genome
T1 sequence (looked up): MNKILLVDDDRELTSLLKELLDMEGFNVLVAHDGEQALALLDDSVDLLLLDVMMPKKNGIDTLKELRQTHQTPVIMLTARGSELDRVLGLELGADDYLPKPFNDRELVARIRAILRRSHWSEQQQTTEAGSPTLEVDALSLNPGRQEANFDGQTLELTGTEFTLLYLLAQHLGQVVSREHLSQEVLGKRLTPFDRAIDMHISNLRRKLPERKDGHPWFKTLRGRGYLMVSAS

[2] = target: T1, CpxR (CpxR_KP) (Klebsiella pneumoniae NTUH-K2044); experiment: competition with a labelled probe; details: 10-fold excess unlabeled ompC promoter as specific competitor; 10 mM Tris-HCl pH 8.0, 2 mM EDTA, 0.5 mM DTT, 50 mM NaCl, 10% glycerol, 1 ug poly(dI-dC); 5% native PAGE; temperature not stated; recombinant protein; residues 1-232; protein details: N-terminal His6 (pET-28c); label: 32P end label; probe letters rebuilt from the primers and the genome

## GGCCTAATTGATTGATTAATAGTCGTTAGGGAATCATTAGCCGTAGCACAGATAAATTAAAGTTGTGTAAAGAAGGGTAAAAAAAACCGGATGCGAGGCATCCGGTTGAAATAGGGGTAAACAGACATTCAGAACTGAATGACGGTAATAAATAAAGTTAATGATGATAGCGACTCTTATTTTAGCCACCAATGAACATTTTGTTTTACCATTCAGTGCTATAGATATGTTGTCGTCTATCACTTTGATTATAAAAGGTTAAATATTTTTTTTGATGATTAGTGCGTATTTCCCTGACCATTTTGCGGTGAAAAAAGTTCCGCTGAATTTACAAATTGAAACATCTTGTGGGAACTTTGAAACATCTTAGAAGTTTTAGTATCATATTCTTGTTGGATTATTCTGCATTTTGCAGCACAATGAAATAGCCGACTGATTAGAAGGGTAATCAGTAAGCAGTGGCATAATAAAAGGCATATAACAAACAGAGGGTTAATAAC (double strand) [ompC promoter]
[1]
  binding result: binds
[2]
  binding result: binds
